Values of other authors, collected in US20190211044A1, “Adjuvant Chemicals that Prevent Drug Tolerance and Persister Formation by Bacteria” (LifeUnit Inc., priority 2018, published 2019).
Some compounds may have been tested in ways that are not shown here.

Test system: biofilm
Conditions: known value beside the concentration used in the assay; cited from earlier work

Sodium Nitroprusside
DC50: 50 nM
